Measured values from several laboratories, pooled; numbers as filed in NIAID ChemDB.

Shared fields: tests in culture; species: Mycobacterium smegmatis

ECn is the concentration giving n% inhibition of infection, replication or growth. Conditions beyond the fields shown may differ between rows. Percent inhibition refers to the dose given; in toxicity tests it is the harm to the cells. Blank or dashed fields: not listed here. A number after MIC or MFC names an inhibition level or a share of isolates.

compound	strain or isolate	measure	dose	result
CC(C)(C)NCCNC(C)(C)C	ATCC 607	inhibition	500 µg/mL	100%
COc1c(N2CC[C@@H](CN)C2)c(F)cn2c(=O)n(N)c(=O)c(C3CC3)c12	A91V mutant	MIC99	-	10 µg/mL
C#CCCCCCCCCCCCCC#CC(=O)O	mc22389	MIC99	-	47.7 µM
Cc1c(N2CC[C@@H](CN)C2)c(F)cc2c(=O)n(N)c(=O)n(C3CC3)c12	A91V mutant	MIC99	-	0.625 µg/mL
CCSCCCCCCCCCCCCC#CC(=O)O	mc2651	MIC99	-	76.3 µM
CCC1CN(c2cc3c(cc2F)c(=O)c(C(=O)O)cn3C2CC2)CCN1	G89C mutant	MIC99	-	4 µg/mL
CCCCCCCCCCCCCC#CC(=O)OCC(O)CO	mc2155	MIC99	-	6.1 µM
CC(C)(C)NCCCNC(C)(C)C	ATCC 607	EC50	-	>1000 µg/mL
COc1c(N2CC[C@@H](CN)C2)c(F)cc2c(=O)[nH]c(=O)n(C3CC3)c12	D95Y mutant	MIC99	-	100 µg/mL
CCCCCCCCCCCCNCCNCCCCCCCCCCCC	ATCC 607	inhibition	250 µg/mL	0%
CCc1cc(C(N)=S)ccn1	MC^2 799	MIC	-	30 µg/mL
CCCCCCCCCCCCCCCC#CC(=O)OCC(O)CO	mc2651	MIC99	-	3 µM
CC(NCCNC(C)c1ccccc1)c1ccccc1	ATCC 607	inhibition	250 µg/mL	100%
CCCCCCCCCCCCCCSCC#CC(=O)O	mc22389	MIC99	-	>200 µM
CCCCCCCCCCCCN(C)CCN(C)C	ATCC 607	EC50	-	<4 µg/mL

Repeating the first 2 entries:

| compound | strain or isolate | measure | dose | result |
|---|---|---|---|---|
| CC(C)(C)NCCNC(C)(C)C | ATCC 607 | inhibition | 500 µg/mL | 100% |
| COc1c(N2CC[C@@H](CN)C2)c(F)cn2c(=O)n(N)c(=O)c(C3CC3)c12 | A91V mutant | MIC99 | - | 10 µg/mL |